Tested on: A549, HEK-293, and J774A.1 cells

kanamycin A
cytotoxicity: not toxic
